Data taken from ChEMBL document CHEMBL1134822, “Trifluoromethyl-containing 3-alkoxymethyl- and 3-aryloxymethyl-2-pyridinones are potent inhibitors of HIV-1 non-nucleoside reverse transcriptase” (Bioorg Med Chem Lett, 2001).

Test system: HIV-1 reverse transcriptase (Human immunodeficiency virus 1)
Experiment: Compound was evaluated for its ability to inhibit the mutant K103N NNRTI HIV-1 enzyme

SMILES	IC90 [nM]
CCCOC(C#CC1CC1)(c1cc(CC)c(C)nc1O)C(F)(F)F (configuration not stated)	144
CCc1cc(NCc2nc3c(Cl)ccc(Cl)c3o2)c(O)nc1C [L-697661]	800
